Test results published in patent publication US20260226034A1 (The Rockefeller University, priority 2023, published 2026).

Molecular target: NSP14 (Severe acute respiratory syndrome coronavirus 2, UniProt P0DTD1)
Assay: NSP14 MTase inhibition assay at 37° C. (MTase-Glo SAH detection)
Details: read-out: Nsp14 Mtase Inh. IC50, 0.3 nM NSP14, 2.5 μM SAM, 2.5 μM GpppA RNA

SMILES | IC50 (45 min at 37° C.) [nM] | IC50 (37° C.) [nM]
Cc1c(S(=O)(=O)c2cnc3c(cnn3C)c2)cc(C(=O)NCc2c(F)ccc3occc23)n1C | 98 | 
Cc1n[nH]c(C)c1CNC(=O)c1cc(S(=O)(=O)c2ccc3[nH]ncc3c2)c(C)n1C |  | 7.6
Cc1c(S(=O)(=O)c2ccc3[nH]ncc3c2)cc(C(=O)NCc2cccc3c2C(=O)N(C)C3=O)n1C |  | 0.2
Cc1c(S(=O)(=O)c2ccc3[nH]ncc3c2)cc(C(=O)NCc2cccc3c2C(=O)NC3=O)n1C |  | 0.68
Cc1[nH]c(C(=O)NCc2c(F)ccc3occc23)cc1S(=O)(=O)c1ccc2c(cnn2C)c1 | 90 | 

Where two headings read alike, the source gives them in different places.
